## Positions that govern dimerization of the HIV-1 5' RNA

RNA: 5' end of the HIV-1 NL4-3 genome, made in vitro. Positions 1-437 read:
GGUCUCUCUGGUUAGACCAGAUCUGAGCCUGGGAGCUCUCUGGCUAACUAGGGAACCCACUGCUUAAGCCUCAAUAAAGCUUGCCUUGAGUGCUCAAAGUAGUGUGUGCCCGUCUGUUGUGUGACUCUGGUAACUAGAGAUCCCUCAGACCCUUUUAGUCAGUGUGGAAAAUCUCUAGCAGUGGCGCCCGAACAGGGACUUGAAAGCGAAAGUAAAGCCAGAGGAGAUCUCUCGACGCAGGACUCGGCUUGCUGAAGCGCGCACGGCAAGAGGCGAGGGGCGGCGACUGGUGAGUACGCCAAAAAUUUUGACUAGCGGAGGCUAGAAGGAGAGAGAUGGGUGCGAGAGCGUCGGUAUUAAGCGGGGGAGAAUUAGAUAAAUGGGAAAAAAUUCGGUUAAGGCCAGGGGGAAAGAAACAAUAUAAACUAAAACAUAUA

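Randomly mutated transcripts starting with one, two or three G (1G, 2G, 3G), capped or uncapped, were folded for 30 min at 37 °C. Monomer and dimer bands were cut from native gels after folding in high salt (300 mM KCl, 5 mM MgCl2) or low salt (40 mM KCl, 0.1 mM MgCl2). Kdimer compares mutation frequencies in monomer and dimer, corrected for sequencing errors.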

Values are log2 Kdimer, the median over the changes at each position: higher means that changes there hinder dimer formation, below 0 that they favour it. One numbering serves 1G, 2G and 3G. A position is written with its base.

| position | 1G capped high-salt | 1G capped low-salt | 1G uncapped high-salt | 1G uncapped low-salt |
|---|---|---|---|---|
| A374 | 0.00 | 0.04 | 0.11 | 0.06 |
| G375 | 0.10 | -0.09 | 0.06 | -0.08 |
| A376 | 0.06 | -0.19 | 0.03 | -0.27 |
| U377 | 0.07 | 0.03 | -0.12 | -0.10 |
| A378 | 0.04 | 0.14 | -0.12 | 0.15 |
| A379 | -0.11 | -0.05 | -0.10 | 0.01 |
| A380 | 0.08 | -0.12 | 0.07 | -0.14 |
| U381 | 0.01 | -0.22 | 0.00 | -0.26 |
| G382 | 0.19 | 0.15 | -0.01 | 0.16 |
| G383 | 0.11 | 0.14 | 0.13 | 0.13 |
| G384 | -0.41 | -0.13 | -0.26 | -0.06 |
| A385 | -0.09 | -0.41 | -0.14 | -0.34 |
| A386 | 0.14 | 0.03 | 0.12 | -0.03 |
| A387 | -0.02 | -0.08 | 0.09 | -0.07 |
| A388 | 0.08 | 0.17 | 0.06 | 0.16 |
| A389 | 0.11 | -0.04 | 0.07 | 0.06 |
| A390 | 0.04 | -0.03 | 0.04 | -0.20 |
| U391 | 0.02 | -0.01 | 0.06 | -0.07 |
| U392 | 0.02 | -0.15 | 0.12 | -0.08 |
| C393 | 0.04 | -0.17 | 0.02 | -0.13 |
| G394 | 0.04 | -0.03 | 0.10 | -0.13 |
| G395 | 0.17 | -0.06 | 0.06 | -0.41 |
| U396 | -0.01 | -0.02 | 0.14 | -0.02 |
| U397 | 0.01 | 0.04 | 0.02 | 0.04 |
| A398 | 0.06 | 0.03 | 0.04 | 0.02 |
| A399 | 0.06 | 0.01 | 0.10 | 0.15 |
| G400 | -0.07 | 0.02 | 0.16 | 0.04 |
| G401 | -0.13 | 0.01 | 0.12 | -0.21 |
| C402 | 0.02 | -0.20 | 0.02 | -0.24 |
| C403 | -0.13 | -0.18 | 0.11 | -0.08 |
| A404 | -0.01 | -0.27 | 0.12 | -0.20 |
| G405 | -0.12 | -0.16 | -0.03 | -0.15 |
| G406 | -0.13 | -0.04 | -0.11 | -0.04 |
| G407 | 0.08 | -0.06 | 0.00 | -0.02 |
| G408 | 0.07 | 0.01 | 0.04 | -0.01 |
| G409 | 0.11 | -0.09 | 0.08 | -0.17 |
| A410 | 0.09 | -0.06 | 0.00 | 0.06 |

Excerpt, the final 3 entries:

For G408 the result was 1G capped high-salt 0.07; 1G capped low-salt 0.01; 1G uncapped high-salt 0.04; 1G uncapped low-salt -0.01.
For G409 the result was 1G capped high-salt 0.11; 1G capped low-salt -0.09; 1G uncapped high-salt 0.08; 1G uncapped low-salt -0.17.
For A410 the result was 1G capped high-salt 0.09; 1G capped low-salt -0.06; 1G uncapped high-salt 0.00; 1G uncapped low-salt 0.06.

From the data files of Ye et al. 2022, doi:10.1038/s41594-022-00746-2.